Anti-infective test results gathered from many reports (values: NIAID ChemDB through PubChem).

Shared fields: tests in culture; organism: HIV-1

ECn is the concentration giving n% inhibition of infection, replication or growth.

smiles | mutations | method | cells | read-out | strain | value
Cc1c(Cc2ccc3ccccc3c2)n(COCCO)c(=O)[nH]c1=O | - | - | CEM | EC50 | LAV | >58.8 µM
CC(C)C1=C2[C@H]3CC[C@@H]4[C@@]5(C)CC[C@H](OC(=O)[C@H]6C[C@@H](C(=O)O)C6(C)C)C(C)(C)[C@@H]5CC[C@@]4(C)[C@]3(C)CC[C@@]2(CCN(CCN(C)C)C(=O)c2cc(C(C)C)[nH]n2)CC1=O | - | p24 / ELISA | MT-2 | EC50 | 92HT599 | <1 µM
COc1cc(C(C#N)c2c(F)cccc2F)nc(N(C)C)n1 | K103N + Y181C | MTT | MT-4 | EC50 | IIIB | >40 µM
COC(=O)[C@H](C)NP(=O)(OC[C@@H]1C=C[C@H](n2cc(C)c(=O)[nH]c2=O)O1)Oc1ccc(C#N)cc1 | - | p24 | PBMC | EC50 | IIIB | 0.001 µM
CCc1c(Cc2cccc3ccccc23)n(COCc2ccccc2)c(=O)[nH]c1=O | - | - | MT-4 | EC50 | LAV | 0.017 µM
CC(C)C1=C2[C@H]3CC[C@@H]4[C@@]5(C)CC[C@H](OC(=O)[C@H]6C[C@@H](C(=O)O)C6(C)C)C(C)(C)[C@@H]5CC[C@@]4(C)[C@]3(C)CC[C@@]2(CC(=O)NCc2ccccc2)CC1=O | - | p24 / ELISA | MT-2 | EC50 | 92HT599 | <1 µM
COc1nc(N(C)C)nc(Cc2c(F)cccc2F)c1C | Y181C | MTT | MT-4 | EC50 | IIIB | >67 µM
CCOCn1c(Cc2cccc3ccccc23)c(C)c(=O)[nH]c1=O | - | - | CEM | EC50 | LAV | 0.167 µM
CC(C)C1=C2[C@H]3CC[C@@H]4[C@@]5(C)CC[C@H](OC(=O)[C@H]6C[C@@H](C(=O)O)C6(C)C)C(C)(C)[C@@H]5CC[C@@]4(C)[C@]3(C)CC[C@@]2(CCNCC(C)(C)NC(=O)c2ccc(F)cc2)CC1=O | - | p24 / ELISA | MT-2 | EC50 | 92HT599 | <1 µM
CC1=CC[C@]2(C)CC[C@]3(C)C(=O)C=C(C(C)C)[C@@H]3[C@H]2CC1 | - | RT activity | PBMC | EC50 | LAV | >100 µM
Nc1ncnc2c1ncn2[C@@H]1C=C(CO)[C@@H](O)[C@H]1O | - | p24 | PBMC | EC50 | A012 PRE-AZT | 0.0109 µM
CCOCn1c(Cc2ccc3ccccc3c2)c(C)c(=O)[nH]c1=O | - | - | MT-4 | EC50 | LAV | 3.27 µM
CC1CN(c2cc3c(cc2F)c(=O)c(C(=O)O)cn3-c2ccc(Cn3cncn3)cc2)CCN1c1ccccc1 | - | syncytia | PBL | EC50 | - | 0.2 µM
CC(C)C1=CC(=O)[C@@]2(C)CC[C@@]3(C)C=C[C@@](C)(O)CC[C@@H]3[C@@H]12 | - | RT activity | PBMC | EC50 | LAV | >100 µM
Nc1nc(NC2CC2)c2ncn([C@H]3C=C[C@@H](CO)C3)c2n1 | RT-K65R L74V M184V Y115F | p24 | PBMC | EC90 | XM-ABC-resistant | 87 µM
CC(C)C1=C2[C@H]3CC[C@@H]4[C@@]5(C)CC[C@H](OC(=O)[C@H]6C[C@@H](C(=O)O)C6(C)C)C(C)(C)[C@@H]5CC[C@@]4(C)[C@]3(C)CC[C@@]2(CCNC(=O)c2ccc3ccccc3n2)CC1=O | - | p24 / ELISA | MT-2 | EC50 | 92HT599 | <1 µM
C[C@H]1[C@H](O)[C@@H](C)/C=C/C=C/C=C/C=C/C=C/C=C/C=C/[C@H](O[C@@H]2O[C@H](C)[C@@H](O)[C@H](N)[C@@H]2O)C[C@@H]2O[C@](O)(C[C@@H](O)C[C@@H](O)CC[C@H](O)[C@@H](O)C[C@@H](O)CC(=O)O[C@H]1C)C[C@H](O)[C@H]2C(=O)O | - | p24 / RT activity | PBMC | EC50 | 92BR014 CLADE B X4/R5 (SI) | 2.6 µM
O=C(O)c1cn(-c2ccc(Cn3cncn3)cc2)c2cc(N3CCN(c4ccc(F)cc4F)CC3)c(F)cc2c1=O | - | syncytia | PBL | EC50 | - | 0.16 µM
COC(=O)[C@H](C)NP(=O)(OC[C@@H]1C=C[C@H](n2cc(C)c(=O)[nH]c2=O)O1)Oc1ccccc1Cl | - | p24 | PBMC | EC50 | IIIB | 0.003 µM
C[n+]1c(-c2cccc(C(=O)NCCCCCC(=O)NCCC(=O)N[C@@H](CCCN=C(N)N)C(=O)O)c2)c2cc(N)ccc2c2ccc(N)cc21 | - | RT activity | CEM + CEM-SS | EC50 | LAI | 1 µM
CC(C)C1=C2[C@H]3CC[C@@H]4[C@@]5(C)CC[C@H](OC(=O)[C@H]6C[C@@H](C(=O)O)C6(C)C)C(C)(C)[C@@H]5CC[C@@]4(C)[C@]3(C)CC[C@@]2(CC(=O)NC(CCCN)CNC(=O)c2ccc(Cl)cc2)CC1=O | - | p24 / ELISA | MT-2 | EC50 | 92HT599 | <1 µM
COc1nc(N(C)C)nc(C(C#N)c2c(F)cccc2F)c1C | - | MTT | MT-4 | EC50 | IIIB | >10 µM
COc1cc(N=Nc2cc(S(=O)(=O)O)cc3cc(S(=O)(=O)O)cc(O)c23)c(C)cc1Nc1nc(Nc2ccccc2)nc(Nc2ccccc2)n1 | - | cytopathic effect / XTT | MT-2 | EC50 | IIIB | 8.74 µM
COC(=O)[C@H](C)NP(=O)(OC[C@@H]1C=C[C@H](n2cc(C)c(=O)[nH]c2=O)O1)Oc1ccccc1 | - | p24 | PBMC | EC50 | IIIB | 0.002 µM
COc1cccc(OC)c1C(=O)c1nc(N(C)C)nc(OC)c1C | EFV-resistant (K103R V179D P225H) | MTT | C8166 | EC50 | IIIB | >8 µM
Cc1cccc(N2CCN(c3cc4c(cc3F)c(=O)c(C(=O)O)cn4-c3ccc(Cn4cncn4)cc3)CC2C)c1 | - | syncytia | PBL | EC50 | - | 0.1 µM
COC(=O)[C@H](C)NP(=O)(OC[C@@H]1C=C[C@H](n2cc(C)c(=O)[nH]c2=O)O1)Oc1cccc(Br)c1 | - | p24 | PBMC | EC50 | IIIB | 0.002 µM
CC(C)C1=C2[C@H]3CC[C@@H]4[C@@]5(C)CC[C@H](OC(=O)[C@H]6C[C@@H](C(=O)O)C6(C)C)C(C)(C)[C@@H]5CC[C@@]4(C)[C@]3(C)CC[C@@]2(CCNCC(C)(C)NC(=O)c2ccc(C(F)(F)F)cc2)CC1=O | - | p24 / ELISA | MT-2 | EC50 | 92HT599 | <1 µM
COc1cc(N=Nc2cc(S(=O)(=O)O)cc3cc(S(=O)(=O)O)cc(O)c23)c(C)cc1Nc1nc(Nc2ncncc2OC)nc(Nc2ncncc2OC)n1 | - | cytopathic effect / XTT | MT-2 | EC50 | IIIB | >80 µM
COc1nc(N(C)C)nc(C(=O)c2c(F)cccc2F)c1C | Y181C | MTT | MT-4 | EC50 | IIIB | >20 µM
CCc1c(Cc2ccc3ccccc3c2)n(COC)c(=O)[nH]c1=O | - | - | MT-4 | EC50 | LAV | ≥8.268 µM
Cc1c(C(O)c2c(F)cccc2F)nc(N(C)C)[nH]c1=O | K103N + Y181C | MTT | MT-4 | EC50 | IIIB | >50 µM
Cc1c(Cc2cccc3ccccc23)n(COCc2ccccc2)c(=O)[nH]c1=O | - | - | CEM | EC50 | LAV | 0.075 µM
Cc1cn([C@H]2C=C[C@@H](CO)O2)c(=O)[nH]c1=O | - | p24 | MT-4 | EC90 | NL-XM WT | 0.3 µM
Nc1nccc2c1ncn2[C@@H]1C=C(CO)[C@@H](O)[C@H]1O | - | p24 | H9 | EC50 | MN | 0.001 µM
CCCc1c(Cc2cccc3ccccc23)n(COCc2ccccc2)c(=O)[nH]c1=O | - | - | MT-4 | EC50 | LAV | 0.234 µM

Repeating the final 4 entries:

Cc1c(Cc2cccc3ccccc23)n(COCc2ccccc2)c(=O)[nH]c1=O ; cells: CEM ; read-out: EC50 ; strain: LAV ; value: 0.075 µM
Cc1cn([C@H]2C=C[C@@H](CO)O2)c(=O)[nH]c1=O ; method: p24 ; cells: MT-4 ; read-out: EC90 ; strain: NL-XM WT ; value: 0.3 µM
Nc1nccc2c1ncn2[C@@H]1C=C(CO)[C@@H](O)[C@H]1O ; method: p24 ; cells: H9 ; read-out: EC50 ; strain: MN ; value: 0.001 µM
CCCc1c(Cc2cccc3ccccc23)n(COCc2ccccc2)c(=O)[nH]c1=O ; cells: MT-4 ; read-out: EC50 ; strain: LAV ; value: 0.234 µM

Blank or dashed fields: not listed here. Neighbouring rows are from separate reports.